According to article PMC3470408:

Tested on: C=C(C)CCO[P@@](=O)(O)OP(=O)(O)O
Assay: purified protein
Settings: pH 7.0; 37.0 °C

Substance | Km [µM]
Rv0562 (Mycobacterium tuberculosis H37Rv) | 1.7 ± 0.7
Rv3383c (Mycobacterium tuberculosis H37Rv) | 11 ± 2
